Data as given in PMC10127588 (mBio, 2023).

System: Mps1 single mutants (Q31, K52, E70, D167, V37, L156 to alanine)
Conditions: SPR; except for E70 and D167 mutants

With `CNC(=O)[C@H](Cc1c[nH]c2ccccc12)NC(=O)c1ccc2cncc(-c3cc(OC(F)(F)F)ccc3OC)c2n1` [A378-0] the “affinity to single mutants compared with Mps1” value was “no obvious differences in affinity were observed”.
